# PSTVd loop 6 mutant pool in Nicotiana benthamiana

Source: Wu et al. 2024 (doi:10.1371/journal.ppat.1012142), supplementary data.

The pool varies loop 6 of the PSTVd intermediate strain in the pattern UNNNCGNNNG; wild type is UGACCGCGAG (upper and lower strand joined, each 5' to 3', the first 5 letters being the upper strand, closing pairs included).

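A pool of all variants was put on leaves of three Nicotiana benthamiana plants. Progeny were sequenced from the inoculated region (day 5), the margin of the inoculated leaf (day 10) and systemic leaves (day 12).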

Numbers give reads per thousand; 0 = not seen among the reads, higher = more abundant. Each site shows the three plants. "Pool" is the share in the plasmid pool used as inoculum, on the same scale. The inoculated region was read from the minus strand, the other sites from the plus strand. IR is the inoculated region, LM the leaf margin, Sys the systemic leaves. For reference, wild type rose from 20.7 per thousand in the pool to 195, 198, 203 (inoculated region), 629, 591, 734 (leaf margin) and 942, 870, 868 (systemic leaves).

sequence | pool | IR | LM | Sys
UCGACGAUGG | 0.209 | 0.139 0.0719 0.0738 | 0 0 0 | 0 0 0
UCGACGAUUG | 0.314 | 0.104 0.126 0.111 | 0 0 0 | 0 0 0
UCGACGCAAG | 0.144 | 0.104 0.180 0.129 | 0 0 0 | 0 0 0
UCGACGCACG | 0.209 | 0.104 0.0898 0.129 | 0 0 0 | 0 0 0
UCGACGCAGG | 0.235 | 0.0869 0.0719 0.0369 | 0.0276 0 0 | 0 0 0
UCGACGCAUG | 0.248 | 0.104 0.0719 0.0369 | 0 0 0 | 0 0 0
UCGACGCCAG | 0.170 | 0.0695 0.0898 0.129 | 0.0276 0 0 | 0 0 0
UCGACGCCCG | 0.157 | 0.0869 0.162 0.0738 | 0 0 0.0232 | 0 0 0
UCGACGCCGG | 0.170 | 0.0695 0.0719 0.0738 | 0 0 0.0232 | 0 0 0
UCGACGCCUG | 0.209 | 0.0869 0.180 0.0369 | 0.0276 0 0.0232 | 0 0 0
UCGACGCGAG | 0.144 | 0.122 0.126 0.148 | 0.0552 0 0 | 0.0180 0.0606 0.205
UCGACGCGAU | 0.0131 | 0.0348 0.126 0.111 | 0.0552 0 0.0232 | 0 0 0
UCGACGCGCG | 0.170 | 0.0521 0.162 0.0738 | 0 0 0 | 0 0 0
UCGACGCGGG | 0.144 | 0.0695 0.108 0.0553 | 0.0276 0 0 | 0 0 0
UCGACGCGUG | 0.131 | 0.122 0.108 0.148 | 0.0828 0 0 | 0 0 0
UCGACGCUAG | 0.144 | 0.209 0.0719 0.0738 | 0.0276 0 0 | 0 0 0
UCGACGCUCG | 0.235 | 0.0695 0.0539 0.0922 | 0.0276 0 0.0232 | 0 0 0
UCGACGCUGG | 0.157 | 0.174 0.0539 0 | 0.0276 0 0 | 0 0 0
UCGACGCUUG | 0.301 | 0.122 0.0719 0.184 | 0.0552 0 0 | 0 0 0
UCGACGGAAG | 0.144 | 0.0521 0.0539 0.0922 | 0 0 0.0232 | 0 0 0
UCGACGGACG | 0.131 | 0.0869 0.0719 0.111 | 0.0276 0 0 | 0 0 0
UCGACGGAGG | 0.144 | 0.104 0.0539 0.0738 | 0 0 0 | 0 0 0
UCGACGGAGU | 0.0131 | 0 0 0 | 0 0 0 | 0 0 0
UCGACGGAUG | 0.170 | 0.174 0.0898 0.0184 | 0 0 0 | 0 0 0
UCGACGGCAG | 0.131 | 0.0695 0.0539 0.0553 | 0.0276 0 0.0232 | 0 0 0
UCGACGGCCG | 0.209 | 0.0348 0.108 0.0553 | 0 0 0 | 0 0 0
UCGACGGCGG | 0.209 | 0.122 0.0539 0.0922 | 0 0 0 | 0 0 0
UCGACGGCUG | 0.327 | 0.0521 0.0719 0 | 0.0276 0 0.0232 | 0 0 0
UCGACGGGAG | 0.209 | 0.712 0.719 0.350 | 0.0552 0.0504 0.116 | 0 0 0
UCGACGGGCG | 0.157 | 0.817 0.808 0.498 | 0.0276 0 0.0696 | 0 0 0
UCGACGGGGG | 0.105 | 0.0869 0.0719 0.0553 | 0 0 0 | 0 0 0
UCGACGGGUG | 0.209 | 0.0521 0.126 0.0738 | 0 0 0 | 0 0 0
UCGACGGUAG | 0.157 | 0.226 0.0898 0.0922 | 0 0 0 | 0 0 0
UCGACGGUCG | 0.170 | 0.122 0.0898 0.0922 | 0 0 0 | 0 0 0
UCGACGGUGG | 0.209 | 0.174 0.108 0.0738 | 0.0276 0 0 | 0 0 0
UCGACGGUUG | 0.235 | 0.0521 0.162 0.0738 | 0 0 0 | 0 0 0
UCGACGUAAG | 0.0654 | 0.104 0.0898 0.148 | 0 0 0 | 0 0 0
UCGACGUACG | 0.170 | 0.104 0.0539 0.0553 | 0.0276 0 0 | 0 0 0
UCGACGUAGG | 0.144 | 0.0521 0.0719 0.111 | 0.0276 0 0 | 0 0 0
UCGACGUAUG | 0.340 | 0.139 0.108 0.129 | 0.304 0 0 | 0 0 0
UCGACGUCAG | 0.157 | 0.226 0.0719 0.129 | 0 0 0 | 0 0 0
UCGACGUCCG | 0.261 | 0.0695 0.0719 0.0738 | 0 0 0 | 0 0 0
UCGACGUCGG | 0.288 | 0.139 0.126 0.0553 | 0 0 0.0232 | 0 0 0

The authors trace changes outside the varied positions to PCR and sequencing errors or to mutation in the plant; presence does not show that a variant is infectious alone. With 36,220-57,551 reads a sample, very low values are single reads.